A mixed list of measured activities; the numbers were collected in NIAID ChemDB.

All rows: target-level tests; agent: Hepatitis C virus; protein: NS5B polymerase

Two numbers with a dash give a range or band. ICn is the concentration giving n% inhibition. An empty or dashed field is not shown. Lines come from different laboratories, so protocols vary.

SMILES	method	strain	read-out	value
COc1ccc([C@H](NC(=O)c2ccc3c(c2)nc(-c2ccoc2)n3C2CCCCC2)C(=O)O)cc1OC			IC50	<1 µM
CCN(C(=O)c1ccc(C)cc1)c1cc(-c2ccccc2)sc1C(=O)O			IC50	3 µM
CCOC(=O)c1ccc(CC)nc1Nc1ccc(N2CCOCC2)cc1			IC50	3 µg/mL
Cc1nnsc1-c1nc2cc(C(=O)N[C@H](C(=O)O)c3c[nH]c4ccc(O)cc34)ccc2n1C1CCCCC1			IC50	<1 µM
CCCN(CCC)CCSc1nnc2c(n1)[nH]c1ccccc12			IC50	0.056–83.5 µM
Cc1ccccc1C(=O)N/C(=C\c1ccc(-c2ccccc2Cl)s1)C(=O)O			IC50	11–30 µM
COc1cc(C(=O)N2[C@@H](c3ncc(C)s3)[C@@H](c3cnccn3)C[C@@]2(Cc2nccs2)C(=O)O)ccc1C(C)(C)C		Genotype 1A	IC50	<0.15 µM
O=C(O)c1ccc(Cl)cc1NS(=O)(=O)c1cc(Cl)c(Cl)cc1Cl	nucleotide incorporation		IC50	11 µM
O=C(NC1(C(=O)Nc2ccc(N3CCOCC3)nc2)CCCC1)c1ccc2c(c1)nc(-c1ccoc1)n2C1CCCCC1			IC50	0.5–5 µM
CCC(=O)N1c2ccccc2NC2=C(C(=O)CC(C)(C)C2)C1c1cc(Cl)cc(Cl)c1OC			IC50	>42.6 µM
O=C(N[C@H](C(=O)O)c1c[nH]c2ccc(O)cc12)c1ccc2c(c1)nc(-c1cc3ccccc3[nH]1)n2C1CCCCC1			IC50	1–5 µM
COc1cc(C(=O)N2[C@@H](c3nccs3)[C@@H](c3cnccn3)C[C@@]2(Cc2cnc[nH]2)C(=O)O)ccc1C(C)(C)C		Genotype 1A	IC50	>1 µM
CCCCOC(=O)c1ccc(CCCC)nc1N(CCC)c1ccc(N2CCOCC2)cc1			IC50	3 µg/mL
CC(C)CC(=O)N1c2ccccc2NC2=C(C(=O)CC(C)(C)C2)C1c1ccc(Cl)cc1			IC50	>33.3 µM
Cc1cc(-c2nc3cc(C(=O)N[C@H](C(=O)O)c4c[nH]c5ccc(O)cc45)ccc3n2C2CCCCC2)n[nH]1			IC50	1–5 µM
O=C(Cn1nc(C(=O)O)cc1C(=O)Nc1ccccc1OCC1CCC1)N[C@H]1CCCC[C@@H]1OCc1ccccc1			IC50	≤0.05 µM
Cc1nc(C[C@H](Cc2ccc(OCC(=O)O)cc2)NC(=O)c2ccc3c(c2)nc(-c2ccoc2)n3C2CCCCC2)cs1			IC50	1–5 µM
CCC(=O)N1c2ccccc2NC2=C(C(=O)CC(c3ccc(OC)c(OC)c3)C2)C1c1ccccc1OC(C)CC			IC50	>33.3 µM
COc1cc(C(=O)N2[C@@H](c3ncc(C)s3)[C@@H](c3cnccn3)C[C@@]2(Cn2cccn2)C(=O)O)ccc1C(C)(C)C		Genotype 1A	IC50	<0.15 µM
CCCC1(CC(=O)O)CCCC2c3ccccc3NC21			IC50	>33 µM
O=C(Cn1nc(C(=O)NCC2CCCCC2)cc1C(=O)N[C@H]1CCCC[C@@H]1OCc1ccccc1)Nc1ccccc1OCc1ccccc1			IC50	0.1–1 µM
O=C(O)c1ccc2c(c1)nc(-c1ccc(OCc3cc(C(=O)N4CCC(O)CC4)ccc3Cl)cc1F)n2C1CCCCC1			IC50	<10 µM
O=C(O)/C(=C/c1ccc(-c2ccccc2Cl)s1)NC(=O)c1ccccc1O			IC50	<10 µM
CCSc1nc(Nc2ccc(N(CC)CC)cc2)cc(N2CCN(C(=O)c3ncc(C)cn3)CC2)n1			IC50	3 µg/mL
CCCC1(CC(=O)O)CCCC2c3c(C#N)ccc(F)c3NC21			IC50	2 µM
O=C(N[C@@H](Cc1c[nH]c2ccc(O)cc12)C(=O)O)c1ccc2c(c1)nc(-c1ccoc1)n2C1CCCCC1			IC50	<1 µM
O=C(Cn1nc(NC(=O)C(F)(F)F)cc1C(=O)Nc1ccccc1OCc1ccccc1)N[C@H]1CCCC[C@@H]1OCc1ccccc1			IC50	0.1–1 µM
CC(C)=Cc1nc2cc(C(=O)O)ccc2n1C1CCCCC1			IC50	10 µM
COc1cc(C(=O)N2[C@@H](c3nccs3)[C@@H](c3cnccn3)C[C@@]2(Cc2ccsn2)C(=O)O)ccc1C(C)(C)C		genotype 1b	IC50	<0.1 µM
O=C(O)/C=C/c1ccc(CC2CCN(CNC(=O)c3ccc4c(c3)nc(-c3ccoc3)n4C3CCCCC3)CC2)cc1			IC50	1–5 µM
Cc1c(Cl)cccc1S(=O)(=O)Nc1nc(C(=O)N[C@H]2CCCC[C@@H]2OCc2ccccc2)n(CC(=O)N[C@H]2CCCC[C@@H]2OCc2ccccc2)n1			IC50	0.1–1 µM
CC1(C)CC(=O)C2=C(C1)Nc1cccc(Br)c1NC2c1ccc(Cl)cc1Cl			IC50	25.6 µM
CC(=O)Nc1ccc(C(=O)N/C(=C\c2ccc(-c3ccccc3)o2)C(=O)O)cc1			IC50	11–30 µM
COc1ccc(CCNC(=O)c2ccc3c(c2)nc(/C=C/c2ccccc2)n3C2CCCCC2)cc1OC			IC50	<1 µM
O=C1CC(c2ccccc2OCc2ccccc2)CC2=C1C(c1ccccc1)N(C(=O)c1ccccc1)c1ccccc1N2			IC50	>42.7 µM
CC(=O)Nc1ccc(-c2ccc(O)cc2)c(COc2ccc(C3Nc4cc(C(=O)O)ccc4N3C3CCCCC3)cc2)c1			IC50	0.05 µM
O=C(N[C@H](C(=O)O)c1c[nH]c2ccc(O)cc12)c1ccc2c(c1)nc(-c1ccc(O)cc1O)n2C1CCCCC1			IC50	1–5 µM
O=C(NC(Cc1c[nH]c2ccc(O)cc12)C(=O)O)c1ccc2c(c1)nc(-c1ccoc1)n2C1CCCCC1			Ki	0.15 µM
O=C(N[C@H](C(=O)O)c1c[nH]c2ccc(O)cc12)c1ccc2c(c1)nc(-c1nccc3ccccc13)n2C1CCCCC1			IC50	1–5 µM
C[C@@H](NC(=O)c1ccc2c(c1)nc(-c1ccoc1)n2C1CCCCC1)C(=O)Nc1ccc2oc(C(=O)O)cc2c1			IC50	<0.5 µM
O=C(O)c1cc(Br)ccc1NS(=O)(=O)c1cc(Cl)c(Cl)cc1Cl	nucleotide incorporation		IC50	9 µM
CCCC1(CC(=O)O)CCCC2c3c(C#N)ccc(C(N)=O)c3NC21			IC50	>33 µM
O=C(O)c1cnc(N(C(=O)c2ccc(Oc3ccc(Cl)cc3)cc2)C2CCCCC2)s1			IC50	4.2 µM
O=C1NC(=S)NC(=O)C1Cc1ccc(-c2ccccc2C(F)(F)F)o1			IC50	0.056–83.5 µM
O=C(O)COc1ccc2[nH]cc(C[C@H](NC(=O)c3ccc4c(c3)nc(-c3ccc(OCC(=O)NCCNC(=S)Nc5ccc(-c6c7ccc(=O)cc-7oc7cc(O)ccc67)cc5C(=O)O)cc3)n4C3CCCCC3)C(=O)O)c2c1			IC50	<1 µM
CCCCSc1nc(Nc2ccc(N(CC)CC)cc2)cc(N2CCN(C(=O)c3ccncc3)CC2)n1			IC50	3 µg/mL
CC(=O)Nc1ccc(-c2nc3cc(C(=O)N[C@H](C(=O)O)c4c[nH]c5ccc(O)cc45)ccc3n2C2CCCCC2)cc1			IC50	1–5 µM
O=C(Cn1nc(C(=O)NOCc2cccc3ccccc23)nc1C(=O)N[C@H]1CCCC[C@@H]1OCc1ccccc1)N[C@H]1CCCC[C@@H]1OCc1ccccc1			IC50	0.1–1 µM
COc1ccc(C(NC(=O)c2ccc3c(c2)nc(-c2ccoc2)n3C2CCCCC2)C(=O)O)cc1OC			IC50	<1 µM
Cc1cc(=O)oc2cc(NC(=O)C3(NC(=O)c4ccc5c(c4)nc(-c4ccoc4)n5C4CCCCC4)CCCC3)ccc12			IC50	0.5–5 µM
CCN(CC)c1ccc(C2Nc3cc(C(=O)c4ccccc4)ccc3NC3=C2C(=O)CC(C)(C)C3)cc1			IC50	>42.7 µM
O=C(O)CC(NC(=O)c1ccc2c(c1)nc(-c1ccccn1)n2C1CCCCC1)C1(C(=O)O)CCCC1			IC50	5–10 µM
COc1cc(C(=O)N2[C@@H](c3nccs3)[C@@H](c3cnccn3)C[C@@]2(CCS)C(=O)O)ccc1C(C)(C)C		genotype 1b	IC50	0.1–0.5 µM
O=C(O)/C=C/c1ccc(NC(=O)[C@@H](NC(=O)c2ccc3c(c2)nc(-c2ccoc2)n3C2CCCCC2)c2ccccc2)cc1			IC50	0.5–5 µM
Nc1ccc(C(=O)N/C(=C\c2ccc(-c3ccccc3Cl)s2)C(=O)O)cc1			IC50	11–30 µM

6 of the rows above, restated:

{"SMILES": "Nc1ccc(C(=O)N/C(=C\\c2ccc(-c3ccccc3Cl)s2)C(=O)O)cc1", "read-out": "IC50", "value": "11–30 µM"}
{"SMILES": "O=C(O)/C(=C/c1ccc(-c2ccccc2Cl)s1)NC(=O)c1ccccc1O", "read-out": "IC50", "value": "<10 µM"}
{"SMILES": "Cc1nnsc1-c1nc2cc(C(=O)N[C@H](C(=O)O)c3c[nH]c4ccc(O)cc34)ccc2n1C1CCCCC1", "read-out": "IC50", "value": "<1 µM"}
{"SMILES": "CCN(CC)c1ccc(C2Nc3cc(C(=O)c4ccccc4)ccc3NC3=C2C(=O)CC(C)(C)C3)cc1", "read-out": "IC50", "value": ">42.7 µM"}
{"SMILES": "O=C(Cn1nc(C(=O)NOCc2cccc3ccccc23)nc1C(=O)N[C@H]1CCCC[C@@H]1OCc1ccccc1)N[C@H]1CCCC[C@@H]1OCc1ccccc1", "read-out": "IC50", "value": "0.1–1 µM"}
{"SMILES": "COc1ccc(CCNC(=O)c2ccc3c(c2)nc(/C=C/c2ccccc2)n3C2CCCCC2)cc1OC", "read-out": "IC50", "value": "<1 µM"}